Patent US20100009970A1, “COMPOSITIONS AND METHODS FOR TREATMENT OF VIRAL DISEASES” (Combinatorx (Singapore) Pte. Ltd., priority 2008, published 2010)
“And” between values parts separate entries of the source, which are not always exact repeats. Identical values can stand only once.

Test system: Huh7 cells expressing a subgenomic RNA replicon of Con1 (genotype 1b) sequence origin
Conditions: ratio CC50 / IC50

| Compound | Therapeutic index | TI |
| --- | --- | --- |
| CN[C@H]1CC[C@@H](c2ccc(Cl)c(Cl)c2)c2ccc(N(C)C)cc21 [Sertraline A-Ring N,N-Dimethylamine, (1S,4S)-4-(3,4-dichlorophenyl)-N1,N7,N7-trimethyl-1,2,3,4-tetrahydronaphthalene-1,7-diamine] | 1.76 and 1.77 | – |
| CN(C)[C@H]1CC[C@@H](c2ccc(Cl)c(Cl)c2)c2ccc(NC(=O)c3ccccc3)cc21 [N-((5S,8S)-5-(3,4-dichlorophenyl)-8-(dimethylamino)-5,6,7,8-tetrahydronaphthalen-2-yl)benzamide] | 1.33 | – |
| CN[C@H]1CC[C@@H](c2ccc(Cl)c(Cl)c2)c2ccc(NS(=O)(=O)c3cn(C)cn3)cc21 [N-((5S,8S)-5-(3,4-dichlorophenyl)-8-(methylamino)-5,6,7,8-tetrahydronaphthalen-2-yl)-1-methyl-1H-imidazole-4-sulfonamide] | 1.75 | – |
| CSc1ccc(Oc2ccc([N+](=O)[O-])cc2CN(C)C)cc1C [Compound 54, N,N-dimethyl-1-(2-(3-methyl-4-(methylthio)phenoxy)-5-nitrophenyl)methanamine] | – | >8.1 |
| CN[C@H]1CC[C@@H](c2ccc(Cl)c(Cl)c2)c2ccc(CNS(C)(=O)=O)cc21 [N-(((5S,8S)-5-(3,4-dichlorophenyl)-8-(methylamino)-5,6,7,8-tetrahydronaphthalen-2-yl)methyl)methanesulfonamide] | 3.45 | 3.45 |
| CN[C@H]1CC[C@@H](c2ccc(Cl)c(Cl)c2)c2ccc(CSC)cc21 [Sertraline A-Ring Methylsulfide, (1S,4S)-4-(3,4-dichlorophenyl)-N-methyl-7-(methylthiomethyl)-1,2,3,4-tetrahydronaphthalen-1-amine] | 1.48 | – |
| CNC1CCC(c2ccc(Oc3ccccc3)cc2)c2ccccc21 (centres unmarked) [Sertraline B-ring para-Phenoxy, N-methyl-4-(4-phenoxyphenyl)-1,2,3,4-tetrahydronaphthalen-1-amine] | 1.95 | 1.32 |
| COC1CC[C@@H](c2ccc(Cl)c(Cl)c2)c2ccccc21 (single isomer, unassigned) [Methoxy 4S-Sertraline-P1] | >2.2 | – |
| CN[C@H]1CC[C@@H](c2ccc(Cl)c(Cl)c2)c2ccc(NC(C)=O)cc21 [Sertraline A-Ring Reverse Carboxamide, N-((5S,8S)-5-(3,4-dichlorophenyl)-8-(methylamino)-5,6,7,8-tetrahydronaphthalen-2-yl)acetamide] | 13.14 and 12.55 | – |
| CNCc1cc(Br)ccc1Oc1ccc(SC)cc1 [Compound 34, (5-bromo-2-(4-(methylthio)phenoxy)phenyl)-N-methylmethanamine] | – | 1.44 |
| CN[C@H]1CC[C@@H](c2ccc(Cl)c(Cl)c2)c2ccc(CO)cc21 [Sertraline A-Ring Ethanol, ((5S,8S)-5-(3,4-dichlorophenyl)-8-(methylamino)-5,6,7,8-tetrahydronaphthalen-2-yl)methanol] | 4.97 | 4.97 |
| CNCc1cc(S(N)(=O)=O)ccc1Oc1ccc(SC)c(C)c1 [Compound 48, 4-(3-methyl-4-(methylthio)phenoxy)-3-((methylamino)methyl)benzenesulfonamide] | 16.98 | 16.98 |
| CN(C)[C@H]1CC[C@@H](c2ccc(Cl)c(Cl)c2)c2ccc(C(N)=O)cc21 [(5S,8S)-5-(3,4-dichlorophenyl)-8-(dimethylamino)-5,6,7,8-tetrahydronaphthalene-2-carboxamide] | 8.29 and 6.99 | – |
| CCCCS(=O)(=O)Nc1ccc2c(c1)[C@@H](NC)CC[C@H]2c1ccc(Cl)c(Cl)c1 [N-((5S,8S)-5-(3,4-dichlorophenyl)-8-(methylamino)-5,6,7,8-tetrahydronaphthalen-2-yl)butane-1-sulfonamide] | 0.6 | – |
| COC1CC[C@@H](c2ccc(Cl)c(Cl)c2)c2ccccc21 (stereo partly drawn) [Methoxy 4S-Sertraline] | >2.21 and >1.89 | – |
| CN[C@H]1CC[C@@H](c2ccc(Cl)c(Cl)c2)c2ccc(S(=O)(=O)NCCO)cc21 [Sertraline Sulfonamide Ethanol, (5S,8S)-5-(3,4-dichlorophenyl)-N-(2-hydroxyethyl)-8-(methylamino)-5,6,7,8-tetrahydronaphthalene-2-sulfonamide] | 1.69 | 1.69 |
| CC(=O)NCc1ccc2c(c1)[C@@H](N(C)C)CC[C@H]2c1ccc(Cl)c(Cl)c1 [N-(((5S,8S)-5-(3,4-dichlorophenyl)-8-(dimethylamino)-5,6,7,8-tetrahydronaphthalen-2-yl)methyl)acetamide] | 4.28 | – |
| CN[C@H]1CC[C@@H](c2ccc(Cl)c(Cl)c2)c2ccc(CN)cc21 [Sertraline A-Ring Methanamine, (1S,4S)-7-(aminomethyl)-4-(3,4-dichlorophenyl)-N-methyl-1,2,3,4-tetrahydronaphthalen-1-amine] | 2.32 | – |
| CN[C@H]1CC[C@@H](c2ccc(Cl)c(Cl)c2)c2ccc(S(N)(=O)=O)cc21 [Sertraline Sulfonamide NH2, (5S,8S)-5-(3,4-dichlorophenyl)-8-(methylamino)-5,6,7,8-tetrahydronaphthalene-2-sulfonamide] | 2.74 | 2.74 |
| CN(C)[C@H]1CC[C@@H](c2ccc(Cl)c(Cl)c2)c2ccc(NS(C)(=O)=O)cc21 [Dimethyl Sertraline Reverse Sulfonamide, N-((5S,8S)-5-(3,4-dichlorophenyl)-8-(dimethylamino)-5,6,7,8-tetrahydronaphthalen-2-yl)methanesulfonamide] | 4.77 | 4.77 |
| CNC1CCC(c2ccc(Cl)c(Cl)c2)c2ccsc21 (centres unmarked) [Sertraline A-ring Thiophene] | 2.28 | – |
| CNC1CCC(c2cccs2)c2ccccc21 (centres unmarked) [Sertraline B-ring 2-Thiophene] | 1.69 | – |
| N[C@H]1CC[C@@H](c2ccc(Cl)c(Cl)c2)c2ccccc21 [(1S,4S)-Desmethyl Sertraline, (1S,4S)-4-(3,4-dichlorophenyl)-1,2,3,4-tetrahydronaphthalen-1-amine] | 1.2 | 1.2 |
| CN[C@H]1CC[C@@H](c2ccc(Cl)c(Cl)c2)c2ccc(NS(=O)(=O)C3CC3)cc21 [N-((5S,8S)-5-(3,4-dichlorophenyl)-8-(methylamino)-5,6,7,8-tetrahydronaphthalen-2-yl)cyclopropanesulfonamide] | 1.32 | – |
| CN[C@H]1CC[C@@H](c2ccc(Cl)c(Cl)c2)c2ccc(C(=O)OC)cc21 [Sertraline A-ring Methyl Ester, (5S,8S)-methyl 5-(3,4-dichlorophenyl)-8-(methylamino)-5,6,7,8-tetrahydronaphthalene-2-carboxylate] | 1.5 | 1.5 |
| CNS(=O)(=O)c1ccc(Oc2ccc(SC)c(C)c2)c(CN(C)C)c1 [Compound 6, 3-((dimethylamino)methyl)-N-methyl-4-(3-methyl-4-(methylthio)phenoxy)benzenesulfonamide] | – | 7.8 |
| COc1ccc(Oc2ccc(Br)cc2CN(C)C)cc1 [Compound 42, (5-bromo-2-(4-methoxyphenoxy)phenyl)-N,N-dimethylmethanamine] | – | >1.63 |
| CC(C)C1CCC(c2ccc(Cl)c(Cl)c2)c2ccccc21 (centres unmarked) [Isopropyl Sertraline, 1-(3,4-dichlorophenyl)-4-isopropyl-1,2,3,4-tetrahydronaphthalene] | >5.40 | – |
| CCCCC(=O)Nc1ccc2c(c1)[C@@H](NC)CC[C@H]2c1ccc(Cl)c(Cl)c1 [Sertraline A-Ring Reverse Pentanamide, N-((5S,8S)-5-(3,4-dichlorophenyl)-8-(methylamino)-5,6,7,8-tetrahydronaphthalen-2-yl)pentanamide] | 1.18 and 1.17 | – |
